## Sequence variants of PSTVd loop 15 after infection

Reference: Wu et al. 2024, doi:10.1371/journal.ppat.1012142.

Region: loop 15 of PSTVd (intermediate strain), upper and lower strand joined, each 5' to 3', the first 7 letters being the upper strand, closing pairs included. Wild type: GGAAACCGCUACUAC. Varied positions (N): GGAAACCGNNNNNNC.

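Three N. benthamiana plants were inoculated with the whole mutant pool. Samples came from the inoculated region at 5 days, the leaf margin at 10 and upper systemic leaves at 12.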

Values are reads per thousand in the sample; higher means more abundant, 0 means not found. Each site shows the three plants. "Pool" is the share in the plasmid pool used as inoculum, on the same scale. The inoculated region was read from the minus strand, the other sites from the plus strand. For reference, wild type rose from 33.9 per thousand in the pool to 202, 200, 159 (inoculated region), 724, 746, 710 (leaf margin) and 856, 883, 880 (systemic leaves). With 43,870-66,106 reads a sample, very low values are single reads. The authors trace changes outside the varied positions to PCR and sequencing errors or to mutation in the plant; presence does not show that a variant is infectious alone.

sequence | pool | inoculated region | leaf margin | systemic leaves
GGAAACCGUCGGUCC | 0.240 | 0.115 / 0.0643 / 0.0571 | 0 / 0.0445 / 0 | 0 / 0 / 0
GGAAACCGCCUAGUC | 0.176 | 0.0655 / 0.0964 / 0.0952 | 0.0162 / 0.0223 / 0 | 0 / 0 / 0
GGAAACCGUUUCGGC | 0.272 | 0.0983 / 0.0482 / 0.0762 | 0 / 0 / 0.0200 | 0 / 0 / 0
GGAAACCGCUCACCC | 0.256 | 0.131 / 0.0803 / 0.114 | 0.0162 / 0.0223 / 0 | 0.0161 / 0 / 0
GGAAACCGGCACGCC | 0.192 | 0.164 / 0.0803 / 0.0381 | 0 / 0 / 0.0200 | 0 / 0 / 0
GGAAACCGGGAGCUC | 0.240 | 0.0983 / 0.0803 / 0.0571 | 0.0162 / 0 / 0 | 0 / 0 / 0
GGAAACCGGUUGCGC | 0.288 | 0.164 / 0.0482 / 0.0952 | 0 / 0 / 0.0401 | 0 / 0 / 0
GGAAACCGGUGCCCC | 0.208 | 0.0819 / 0.0964 / 0.0762 | 0 / 0 / 0 | 0.0161 / 0 / 0
GGAAACCGCUUGUUC | 0.272 | 0.360 / 0.353 / 0.343 | 0.0970 / 0.111 / 0.0801 | 0 / 0.0756 / 0.0912
GGAAACCGCGAGAAC | 0.224 | 0.278 / 0.386 / 0.400 | 0.113 / 0.0223 / 0.180 | 0.0322 / 0.0151 / 0.0228
GGAAACCGCAGGAGC | 0.240 | 0.197 / 0.225 / 0.152 | 0.0162 / 0.0223 / 0 | 0.0161 / 0 / 0
GGAAACCGCACCGGC | 0.192 | 0.115 / 0.0482 / 0.152 | 0 / 0 / 0.0200 | 0 / 0 / 0
GGAAACCGCACUAAC | 0.208 | 0.0819 / 0.177 / 0.114 | 0 / 0 / 0.0200 | 0 / 0 / 0
GGAAACCGGCUAGGC | 0.256 | 0.0983 / 0.0803 / 0.0571 | 0 / 0.0223 / 0.0401 | 0 / 0 / 0
GGAAACCGGCUCCAC | 0.256 | 0.115 / 0.0482 / 0.0190 | 0 / 0.0445 / 0 | 0.0161 / 0 / 0
GGAAACCGUUUGUUC | 0.176 | 0.229 / 0.145 / 0.343 | 0.113 / 0.111 / 0.200 | 0.0805 / 0.0605 / 0.0228
GGAAACCGCCCGACC | 0.320 | 0.0491 / 0.0964 / 0.152 | 0.0162 / 0 / 0.0401 | 0 / 0 / 0
GGAAACCGAACCUCC | 0.272 | 0.0819 / 0.193 / 0.114 | 0 / 0 / 0 | 0 / 0 / 0
GGAAACCGUCAGCUC | 0.192 | 0.360 / 0.386 / 0.400 | 0.178 / 0.200 / 0.220 | 0.0322 / 0 / 0
GGAAACCGUUAUGAC | 0.240 | 0.229 / 0.353 / 0.514 | 0.129 / 0.0668 / 0.120 | 0.0644 / 0 / 0
GGAAACCGUCCGUGC | 0.192 | 0.328 / 0.353 / 0.343 | 0.113 / 0.0668 / 0.100 | 0 / 0.0454 / 0.114
GGAAACCGGGUACAC | 0.288 | 0.0655 / 0.0803 / 0.0952 | 0 / 0 / 0 | 0 / 0 / 0
GGAAACCGUCGGCAC | 0.256 | 0.0655 / 0.0803 / 0.133 | 0 / 0 / 0 | 0 / 0 / 0
GGAAACCGGGAGAGC | 0.240 | 0.0491 / 0.112 / 0.0381 | 0.0162 / 0.0223 / 0.0200 | 0 / 0 / 0
GGAAACCGCUGAACC | 0.208 | 0.0819 / 0.0964 / 0.0952 | 0 / 0 / 0 | 0 / 0 / 0
GGAAACCGUACCGAC | 0.240 | 0.164 / 0.0964 / 0.114 | 0.0323 / 0 / 0 | 0 / 0 / 0
GGAAACCGCAUCUAC | 0.304 | 0.0328 / 0.0803 / 0.133 | 0 / 0.0223 / 0 | 0.0161 / 0 / 0
GGAAACCGACUGGUC | 0.256 | 0.0819 / 0.0803 / 0.0762 | 0.0162 / 0 / 0.0200 | 0 / 0 / 0.0228
GGAAACCGUGGCCCC | 0.160 | 0.0819 / 0.145 / 0.0381 | 0 / 0 / 0.0200 | 0 / 0 / 0
GGAAACCGACCUACC | 0.144 | 0.0983 / 0.0643 / 0.133 | 0 / 0 / 0.0401 | 0 / 0 / 0
GGAAACCGCGGUUAC | 0.144 | 0.311 / 0.289 / 0.419 | 0.146 / 0.0668 / 0.180 | 0.0322 / 0.0303 / 0.0228
GGAAACCGCCGGCCC | 0.208 | 0.311 / 0.241 / 0.228 | 0 / 0.0223 / 0 | 0 / 0 / 0
GGAAACCGCGGCCCC | 0.224 | 0.0655 / 0.0482 / 0.0762 | 0 / 0 / 0 | 0 / 0 / 0
GGAAACCGUAAAGUC | 0.208 | 0.262 / 0.257 / 0.114 | 0 / 0.0223 / 0.0401 | 0.0161 / 0 / 0
GGAAACCGAAGGGCC | 0.256 | 0.0491 / 0.0803 / 0.114 | 0 / 0 / 0 | 0 / 0 / 0
GGAAACCGUCGCGAC | 0.192 | 0.0655 / 0.145 / 0.0952 | 0 / 0 / 0.0200 | 0 / 0 / 0
GGAAACCGCCACUAC | 0.736 | 0.606 / 0.450 / 0.685 | 0.437 / 0.579 / 0.581 | 0.370 / 0.439 / 0.0228
GGAAACCGGGUUGGC | 0.208 | 0.0819 / 0.0803 / 0.152 | 0 / 0 / 0.0401 | 0 / 0 / 0
GGAAACCGGGUCUAC | 0.176 | 0.147 / 0.0964 / 0.0571 | 0 / 0 / 0.0401 | 0 / 0 / 0
GGAAACCGGAGGGCC | 0.144 | 0.0328 / 0.145 / 0.0952 | 0 / 0 / 0 | 0 / 0 / 0
GGAAACCGGCGCAUC | 0.176 | 0.0655 / 0.129 / 0.133 | 0.0162 / 0.0223 / 0.0601 | 0.0161 / 0 / 0
GGAAACCGGGAAUGC | 0.208 | 0.147 / 0.129 / 0.0952 | 0.0485 / 0 / 0.0401 | 0.0161 / 0 / 0
GGAAACCGCAGAUAC | 0.192 | 0.131 / 0.305 / 0.324 | 0.0808 / 0.111 / 0.120 | 0.0161 / 0.106 / 0.0912
GGAAACCGGGUGUCC | 0.176 | 0.0491 / 0.0482 / 0.152 | 0.0162 / 0 / 0.0200 | 0 / 0 / 0
GGAAACCGGUGAAUC | 0.192 | 0.0655 / 0.0964 / 0.152 | 0 / 0 / 0.0401 | 0 / 0 / 0
GGAAACCGUUUGGUC | 0.112 | 0.115 / 0.0643 / 0.0762 | 0 / 0 / 0.0200 | 0 / 0 / 0
GGAAACCGUGCUACC | 0.208 | 0.147 / 0.145 / 0.0952 | 0 / 0 / 0.0401 | 0 / 0 / 0
GGAAACCGGCUUAGC | 0.240 | 0.0164 / 0.0643 / 0.0762 | 0 / 0 / 0 | 0 / 0 / 0
GGAAACCGGAAUAAC | 0.160 | 0.0655 / 0.0803 / 0.0952 | 0 / 0.0223 / 0.0401 | 0.0322 / 0 / 0
GGAAACCGAUUCGAC | 0.208 | 0.229 / 0.257 / 0.0762 | 0 / 0.0445 / 0.0200 | 0 / 0 / 0
GGAAACCGUCCUUCC | 0.224 | 0.164 / 0.0964 / 0.171 | 0.0323 / 0 / 0 | 0 / 0 / 0
GGAAACCGCCCUACC | 0.304 | 0.0328 / 0.129 / 0.133 | 0 / 0 / 0 | 0 / 0 / 0
GGAAACCGCCCUCCC | 0.176 | 0.131 / 0.161 / 0.209 | 0 / 0 / 0 | 0 / 0 / 0
GGAAACCGGGGGGAC | 0.160 | 0.131 / 0.0803 / 0.0190 | 0 / 0 / 0.0200 | 0 / 0 / 0
GGAAACCGUCUAUGC | 0.176 | 0.115 / 0.0321 / 0.0571 | 0.0162 / 0.0445 / 0.0200 | 0 / 0 / 0
GGAAACCGCAGCGUC | 0.256 | 0.0491 / 0.112 / 0.114 | 0 / 0.0223 / 0.0200 | 0 / 0 / 0
GGAAACCGCACUUCC | 0.304 | 0.0491 / 0.0803 / 0.114 | 0 / 0 / 0.0200 | 0 / 0 / 0
GGAAACCGAGCCGGC | 0.272 | 0.229 / 0.0964 / 0.228 | 0.0485 / 0 / 0.0601 | 0.0161 / 0 / 0
GGAAACCGGGGAGGC | 0.160 | 0.0491 / 0.0482 / 0.0762 | 0 / 0 / 0 | 0 / 0 / 0

Excerpt, the final 6 entries:

sequence	pool	inoculated region	leaf margin	systemic leaves
GGAAACCGGGGGGAC	0.160	0.131 / 0.0803 / 0.0190	0 / 0 / 0.0200	0 / 0 / 0
GGAAACCGUCUAUGC	0.176	0.115 / 0.0321 / 0.0571	0.0162 / 0.0445 / 0.0200	0 / 0 / 0
GGAAACCGCAGCGUC	0.256	0.0491 / 0.112 / 0.114	0 / 0.0223 / 0.0200	0 / 0 / 0
GGAAACCGCACUUCC	0.304	0.0491 / 0.0803 / 0.114	0 / 0 / 0.0200	0 / 0 / 0
GGAAACCGAGCCGGC	0.272	0.229 / 0.0964 / 0.228	0.0485 / 0 / 0.0601	0.0161 / 0 / 0
GGAAACCGGGGAGGC	0.160	0.0491 / 0.0482 / 0.0762	0 / 0 / 0	0 / 0 / 0